Publication PMC11236204 (PLOS Pathogens, 2024)

How the values were obtained:
La Crosse virus (LACV) [1] = assay: LACV RNA by qPCR, rat neurons; format: cell-based; details: Fig 3G, vehicle = 1
[2] = system: California Encephalitis virus (CEV); assay: CEV titers by plaque assay, U2OS; details: Fig 3M
RVFV MP-12 [3] = assay: RVFV RNA by qPCR, rat cortical neurons; format: cell-based, Rift Valley fever virus; details: vehicle = 1
[4] = system: Ifit2, Cxcl10, Tnfa, Cxcl1 RNA; assay: ISG and inflammatory gene expression by qPCR, rat cortical neurons; format: cell-based; details: Fig 4C, vehicle = 1
La Crosse virus (LACV) [5] = assay: LACV titers by plaque assay, U2OS; details: Fig 3L
RVFV MP-12 [6] = details: Fig 4M
[7] = system: California Encephalitis virus (CEV); assay: CEV titers by plaque assay, rat neurons; details: Fig 3K
Cxcl1, Ccl2 RNA = assay: Cxcl1 and Ccl2 RNA levels in the mouse brain, 3 dpi; details: for CXCL1 RNA / 28s RNA: Figure 6D; for CCL2 RNA / 28s RNA: Figure 6E
La Crosse virus (LACV) [8] = assay: LACV titers by plaque assay, rat neurons; details: Fig 3J
La Crosse virus (LACV) [9] = assay: LACV infection, automated microscopy, rat neurons; details: Fig 3D
[10] = system: Punta Toro virus-Balliet (PTV); assay: PTV titers by plaque assay, U2OS; details: Fig 3N

CCCCCCCCCCCCCCCC(=O)N[C@@H](CSCC(COC(=O)CCCCCCCCCCCCCCC)OC(=O)CCCCCCCCCCCCCCC)C(=O)N[C@@H](CO)C(=O)N[C@@H](CCCCN)C(=O)N[C@@H](CCCCN)C(=O)N[C@@H](CCCCN)C(=O)N[C@@H](CCCCN)C(=O)O (some centres unmarked) [Pam3CSK4]
Rel. LACV RNA (La Crosse virus (LACV) [1]; replicate 1): 0.4326
Rel. LACV RNA (La Crosse virus (LACV) [1]; replicate 2): 0.2042
Rel. LACV RNA (La Crosse virus (LACV) [1]; replicate 3): 0.4611
Rel. LACV RNA (La Crosse virus (LACV) [1]; replicate 4): 0.3402
CEV titers ([2]; replicate 1): 13250
CEV titers ([2]; replicate 2): 12500
Rel. Fold change RVFV RNA (RVFV MP-12 [3]; Fig 4F, replicate 1): 0.1384
Rel. Fold change RVFV RNA (RVFV MP-12 [3]; Fig 4F, replicate 2): 0.168
Rel. Fold change RVFV RNA (RVFV MP-12 [3]; Fig 4F, replicate 3): 0.3464
Rel. Fold change RVFV RNA (RVFV MP-12 [3]; Fig 4J, replicate 1): 0.09007
Rel. Fold change RVFV RNA (RVFV MP-12 [3]; Fig 4J, replicate 2): 0.06156
Rel. Fold change RVFV RNA (RVFV MP-12 [3]; Fig 4J, replicate 3): 0.1507
Rel. Fold change RVFV RNA (RVFV MP-12 [3]; Fig 4J, replicate 4): 0.6294
Rel. Fold change Tnfa RNA ([4]; replicate 1): 153.268
Rel. Fold change Tnfa RNA ([4]; replicate 2): 368.12
Rel. Fold change Tnfa RNA ([4]; replicate 3): 204.497
LACV titers (La Crosse virus (LACV) [5]; replicate 1): 13250
LACV titers (La Crosse virus (LACV) [5]; replicate 2): 10000
LACV titers (La Crosse virus (LACV) [5]; replicate 3): 19750
Rel. fold change RVFV infection (RVFV MP-12 [6]; TLR2 KO, 0.3125 ug/mL, replicate 1): 0.93
Rel. fold change RVFV infection (RVFV MP-12 [6]; TLR2 KO, 0.3125 ug/mL, replicate 2): 1.177
Rel. fold change RVFV infection (RVFV MP-12 [6]; TLR2 KO, 0.625 ug/mL, replicate 1): 0.8775
Rel. fold change RVFV infection (RVFV MP-12 [6]; TLR2 KO, 0.625 ug/mL, replicate 2): 0.7719
Rel. fold change RVFV infection (RVFV MP-12 [6]; TLR2 KO, 1.25 ug/mL, replicate 1): 0.7786
Rel. fold change RVFV infection (RVFV MP-12 [6]; TLR2 KO, 1.25 ug/mL, replicate 2): 0.9358
Rel. fold change RVFV infection (RVFV MP-12 [6]; TLR2 KO, 2.5 ug/mL, replicate 1): 0.8014
Rel. fold change RVFV infection (RVFV MP-12 [6]; TLR2 KO, 2.5 ug/mL, replicate 2): 0.7844
Rel. fold change RVFV infection (RVFV MP-12 [6]; TLR2 KO, 5 ug/mL, replicate 1): 0.6569
Rel. fold change RVFV infection (RVFV MP-12 [6]; TLR2 KO, 5 ug/mL, replicate 2): 0.6113
Rel. fold change RVFV infection (RVFV MP-12 [6]; TLR2 KO, 10 ug/mL, replicate 1): 0.3819
Rel. fold change RVFV infection (RVFV MP-12 [6]; TLR2 KO, 10 ug/mL, replicate 2): 0.4375
Rel. fold change RVFV infection (RVFV MP-12 [6]; Wt, 0.3125 ug/mL, replicate 1): 0.8764
Rel. fold change RVFV infection (RVFV MP-12 [6]; Wt, 0.3125 ug/mL, replicate 2): 0.8538
Rel. fold change RVFV infection (RVFV MP-12 [6]; Wt, 0.625 ug/mL, replicate 1): 0.9506
Rel. fold change RVFV infection (RVFV MP-12 [6]; Wt, 1.25 ug/mL, replicate 1): 0.8641
Rel. fold change RVFV infection (RVFV MP-12 [6]; Wt, 1.25 ug/mL, replicate 2): 0.874
Rel. fold change RVFV infection (RVFV MP-12 [6]; Wt, 2.5 ug/mL, replicate 1): 0.7014
Rel. fold change RVFV infection (RVFV MP-12 [6]; Wt, 2.5 ug/mL, replicate 2): 0.7506
Rel. fold change RVFV infection (RVFV MP-12 [6]; Wt, 5 ug/mL, replicate 1): 0.6199
Rel. fold change RVFV infection (RVFV MP-12 [6]; Wt, 5 ug/mL, replicate 2): 0.5672
Rel. fold change RVFV infection (RVFV MP-12 [6]; Wt, 10 ug/mL, replicate 1): 0.3981
Rel. fold change RVFV infection (RVFV MP-12 [6]; Wt, 10 ug/mL, replicate 2): 0.4174
CEV titers ([7]; replicate 1): 2375
CEV titers ([7]; replicate 2): 1350
CEV titers ([7]; replicate 3): 3525
CXCL1 RNA / 28s RNA (Cxcl1, Ccl2 RNA; 1 PFU, mouse 1): 3.42E-05
CXCL1 RNA / 28s RNA (Cxcl1, Ccl2 RNA; 1 PFU, mouse 2): 5.70E-05
CXCL1 RNA / 28s RNA (Cxcl1, Ccl2 RNA; 1 PFU, mouse 3): 2.08E-05
CXCL1 RNA / 28s RNA (Cxcl1, Ccl2 RNA; 5 PFU, mouse 1): 7.88E-05
CXCL1 RNA / 28s RNA (Cxcl1, Ccl2 RNA; 5 PFU, mouse 2): 8.05E-05
CXCL1 RNA / 28s RNA (Cxcl1, Ccl2 RNA; 5 PFU, mouse 3): 5.49E-05
CCL2 RNA / 28s RNA (Cxcl1, Ccl2 RNA; 1 PFU, mouse 1): 3.02E-06
CCL2 RNA / 28s RNA (Cxcl1, Ccl2 RNA; 1 PFU, mouse 2): 4.98E-06
CCL2 RNA / 28s RNA (Cxcl1, Ccl2 RNA; 1 PFU, mouse 3): 1.48E-06
CCL2 RNA / 28s RNA (Cxcl1, Ccl2 RNA; 5 PFU, mouse 1): 6.43E-06
CCL2 RNA / 28s RNA (Cxcl1, Ccl2 RNA; 5 PFU, mouse 2): 5.03E-06
CCL2 RNA / 28s RNA (Cxcl1, Ccl2 RNA; 5 PFU, mouse 3): 3.39E-06
LACV titers (La Crosse virus (LACV) [8]; replicate 1): 11862.5
LACV titers (La Crosse virus (LACV) [8]; replicate 2): 13250
LACV titers (La Crosse virus (LACV) [8]; replicate 3): 9000
LACV Rel. infection (La Crosse virus (LACV) [9]; 0.016 ug/mL, replicate 1): 1.204
LACV Rel. infection (La Crosse virus (LACV) [9]; 0.016 ug/mL, replicate 2): 1.202
LACV Rel. infection (La Crosse virus (LACV) [9]; 0.016 ug/mL, replicate 3): 0.905
LACV Rel. infection (La Crosse virus (LACV) [9]; 0.016 ug/mL, replicate 4): 0.9894
LACV Rel. infection (La Crosse virus (LACV) [9]; 0.08 ug/mL, replicate 1): 1.222
LACV Rel. infection (La Crosse virus (LACV) [9]; 0.08 ug/mL, replicate 2): 0.8362
LACV Rel. infection (La Crosse virus (LACV) [9]; 0.08 ug/mL, replicate 3): 1.091
LACV Rel. infection (La Crosse virus (LACV) [9]; 0.08 ug/mL, replicate 4): 1.09
LACV Rel. infection (La Crosse virus (LACV) [9]; 0.4 ug/mL, replicate 1): 1.01
LACV Rel. infection (La Crosse virus (LACV) [9]; 0.4 ug/mL, replicate 2): 0.844
LACV Rel. infection (La Crosse virus (LACV) [9]; 0.4 ug/mL, replicate 3): 0.9873
LACV Rel. infection (La Crosse virus (LACV) [9]; 0.4 ug/mL, replicate 4): 1.219
LACV Rel. infection (La Crosse virus (LACV) [9]; 2 ug/mL, replicate 1): 0.7495
LACV Rel. infection (La Crosse virus (LACV) [9]; 2 ug/mL, replicate 2): 0.6058
LACV Rel. infection (La Crosse virus (LACV) [9]; 2 ug/mL, replicate 3): 0.8588
LACV Rel. infection (La Crosse virus (LACV) [9]; 2 ug/mL, replicate 4): 0.8649
LACV Rel. infection (La Crosse virus (LACV) [9]; 10 ug/mL, replicate 1): 0.4386
LACV Rel. infection (La Crosse virus (LACV) [9]; 10 ug/mL, replicate 2): 0.05115
LACV Rel. infection (La Crosse virus (LACV) [9]; 10 ug/mL, replicate 3): 0.2729
LACV Rel. infection (La Crosse virus (LACV) [9]; 10 ug/mL, replicate 4): 0.3517
PTV titers ([10]; replicate 1): 23000
PTV titers ([10]; replicate 2): 7750
PTV titers ([10]; replicate 3): 24750

Like-named read-outs stand apart in the source and are kept apart here.
